Measured values from several laboratories, pooled; numbers as filed in NIAID ChemDB.

All rows: growth or infection tests; organism: Reovirus; strain: TYPE 1

Neighbouring rows are from separate reports.

Nc1ncnc2c1ncn2[C@@H]1C=C[C@@H](O)[C@H]1O ; endpoint: MIC ; value: 0.7 µg/mL
CCn1nc(-c2ccc(Cn3ccc4ccccc43)cc2)nc1C ; endpoint: MIC ; value: >80 µg/mL
S=c1[nH]n2c(-c3cn(-c4ccccc4)nc3-c3ccccc3)nnc2s1 ; cell line: VERO ; read by: cytopathic effect ; endpoint: EC50 ; value: >80 µg/mL
CC=NC(=N)c1nc(-c2cccc(C)c2)n(Cc2ccccc2)n1 ; cell line: VERO ; read by: cytopathic effect ; endpoint: EC50 ; value: 2 µg/mL
Cc1nc(Cc2n[nH]c(=S)n2-c2ccccc2)nn1C ; endpoint: MIC ; value: >80 µg/mL
Nc1nccc2c1ncn2[C@@H]1C=C(CO)[C@@H](O)[C@H]1O ; endpoint: MIC ; value: 0.07 µg/mL
CCc1nc(CC(=O)NN=C(C)C)nn1CC ; endpoint: MIC ; value: >80 µg/mL
CC(C)CS[C@@H]1C[C@H](n2cnc3c(N)ncnc32)[C@@H](O)[C@H]1O ; cell line: HeLa ; read by: cytopathic effect ; endpoint: EC50 ; value: >80 µg/mL
CCOC(=O)C1Sc2nnc(-c3cn(-c4ccccc4)nc3-c3ccccc3)n2NC1=O ; cell line: VERO ; read by: cytopathic effect ; endpoint: EC50 ; value: >16 µg/mL
CCn1nc(CC(=O)N/N=C/c2ccco2)nc1C ; endpoint: MIC ; value: >80 µg/mL
S=c1[nH]nc(-c2cn(-c3ccccc3)nc2-c2ccccc2)o1 ; cell line: VERO ; read by: cytopathic effect ; endpoint: EC50 ; value: >16 µg/mL
CCn1nc(Cc2n[nH]c(=S)o2)nc1C ; endpoint: MIC ; value: >400 µg/mL
CCOC(=O)C1=CSc2nnc(-c3cn(-c4ccccc4)nc3-c3ccccc3)n2N=C1N ; cell line: VERO ; read by: cytopathic effect ; endpoint: EC50 ; value: >16 µg/mL
Nc1nccc2c1ncn2[C@@H]1CC[C@@H](O)[C@H]1O ; endpoint: MIC ; value: 0.07 µg/mL
O=C(Nn1c(-c2cn(-c3ccccc3)nc2-c2ccccc2)n[nH]c1=S)c1ccccc1 ; cell line: VERO ; read by: cytopathic effect ; endpoint: EC50 ; value: >16 µg/mL
[N-]=[N+]=N[C@H]1[C@@H](F)[C@H](n2cnc3c(N)ncnc32)O[C@@H]1CO ; cell line: VERO B ; read by: cytopathic effect ; endpoint: EC50 ; value: >200 µg/mL

ECn: concentration that inhibits the pathogen or its effect by n%.